Measured values from several laboratories, pooled; numbers as filed in NIAID ChemDB.

ICn is the concentration giving n% inhibition. MIC bound: limit read from a one-dose screen. Blank or dashed fields: not listed here. Conditions beyond the fields shown may differ between rows. Inhibition is in % at the dose shown (toxicity tests: loss of growth or viability).

compound | species | strain | test | target | dose | endpoint | read by | value
Cn1c(=O)c2[nH]c(=O)c(C(CO)C(=O)c3ccccc3)nc2n(C)c1=O | Mycobacterium tuberculosis | H37Rv | culture |  | 12.5 µg/mL | inhibition | BACTEC | 36%
Clc1cccc(-c2cncc(N3CCN(c4ccccn4)CC3)n2)c1 | Cytomegalovirus |  | target | UL97 kinase |  | IC50 |  | <10 µM
N=c1sc2ccccc2n1CC(=O)O | Mycobacterium tuberculosis | H37Rv | culture |  |  | MIC |  | >100 µg/mL
CCN(CC)C(=S)S[Se](SC(=S)N(CC)CC)(SC(=S)N(CC)CC)SC(=S)N(CC)CC | Mycobacterium tuberculosis | EMB-R | culture |  |  | MIC |  | 1.6 µg/mL
COc1cccc(N2CCN(c3cncc(-c4ccc(C(N)=O)cc4)n3)CC2)c1 | Cytomegalovirus |  | target | UL97 kinase |  | IC50 |  | <10 µM
CC(=O)Oc1cc(Sc2ccccc2)c(OC(C)=O)cc1Sc1ccccc1 | Mycobacterium tuberculosis | H37Rv | culture |  |  | MIC |  | >100 µg/mL
Fc1ccc(N2CCCCC2)c(NC(=S)c2ccncc2)c1 |  |  | host protein | CLK2 | 10 µM | inhibition | kinase activity | 34.8%
Fc1ccccc1N1CCN(c2cncc(-c3ccc(C(F)(F)F)cc3)n2)CC1 | Cytomegalovirus |  | target | UL97 kinase | 1 µM | inhibition |  | <50%
O=C(O)C(=O)Nc1ccc([As](=O)(O)O)cc1 | Mycobacterium tuberculosis | H37Rv | culture |  |  | MIC |  | >100 µg/mL
COc1ccc(N2CCN(c3cncc(-c4csc5ccccc45)n3)CC2)cc1 | Cytomegalovirus |  | target | UL97 kinase | 1 µM | inhibition |  | <50%
COc1cc(/C=N/Nc2nnc3c4ccccc4c4ncccc4c3n2)cc(OC)c1OC | Mycobacterium tuberculosis | H37Rv | culture |  | 6.25 µg/mL | inhibition | resazurin | 2%
O=CC(S(=O)(=O)[O-])S(=O)(=O)[O-].[K+].[K+] | Mycobacterium tuberculosis | H37Rv | culture |  |  | MIC |  | >100 µg/mL
CC(=O)c1ccc(-c2cncc(N3CCN(c4ccccc4F)CC3)n2)cc1 | Cytomegalovirus |  | target | UL97 kinase | 1 µM | inhibition |  | <50%
O=NNc1ccc([N+](=O)[O-])cn1 | Mycobacterium tuberculosis | H37Rv | culture |  |  | MIC | BACTEC | ≥12.5 µg/mL
COc1cc(Br)cc(Br)c1OC | Mycobacterium tuberculosis | H37Rv | culture |  |  | MIC |  | 50 µg/mL
NNC(=O)C(=O)N=Cc1ccc([N+](=O)[O-])o1 | Mycobacterium tuberculosis | H37Rv | culture |  | 12.5 µg/mL | inhibition | BACTEC | 100%
O.O=C(O)c1ccc(S(=O)(=O)[O-])cc1C(=O)O.[K+] | Mycobacterium tuberculosis | H37Rv | culture |  |  | MIC |  | >100 µg/mL
COC(=O)C1=CO[C@@H](C)[C@@H]2CN3CCc4c([nH]c5ccc(OC)cc45)[C@@H]3C[C@H]12 | Mycobacterium tuberculosis | H37Rv | culture |  |  | MIC bound | BACTEC | >12.8 µg/mL
CCOC(=O)c1ccccc1N=Nc1ccc(O)c(C(=O)O)c1 | Mycobacterium tuberculosis | H37Rv | culture |  |  | MIC |  | 100 µg/mL
COC(=O)c1nc(=S)[nH]c(C(=O)OC)c1C(=O)c1ccccn1 | Mycobacterium tuberculosis | H37Rv | culture |  |  | MIC bound | BACTEC | >12.5 µg/mL
CC(=O)c1ccc(N2CCN(c3cncc(-c4cccc(C)c4C)n3)CC2)cc1 | Cytomegalovirus |  | target | UL97 kinase |  | IC50 |  | <100 µM

For reference, 2 entries again:

CCOC(=O)c1ccccc1N=Nc1ccc(O)c(C(=O)O)c1 ; species: Mycobacterium tuberculosis ; strain: H37Rv ; test: culture ; endpoint: MIC ; value: 100 µg/mL
O=C(O)C(=O)Nc1ccc([As](=O)(O)O)cc1 ; species: Mycobacterium tuberculosis ; strain: H37Rv ; test: culture ; endpoint: MIC ; value: >100 µg/mL